Tested on: CCRF-CEM
Assay: Toxic dose was evaluated against HIV-IIIB strain of HIV-1 in CEM cell culture assay
Settings: Homo sapiens, CEM cells; read-out: TD50 (the source's name)

With `COc1ccc(S(=O)(=O)N(CC(C)C)C[C@@H](O)[C@H](Cc2ccccc2)NC(=O)c2ccc(N)cc2C)cc1` as the compound, how does the CC50 read?
The CC50 was > 10 µM.
